This is an account of results in publication PMC10184898.

For the test, the target named is MoCrn1 (MST) (Magnaporthe oryzae). The test is described as follows: MST. To be noted: natural protein.

His-MoRgs7 came in with a Kd of 1.35 µM.
